{"source": "paper PMC7959488", "about": "“Identify potent SARS-CoV-2 main protease inhibitors via accelerated free energy perturbation-based virtual screening of existing drugs” (Proceedings of the National Academy of Sciences of the …, 2020)", "target": "SARS-CoV-2 M^pro (Severe acute respiratory syndrome coronavirus 2, UniProt P0DTD1)", "data": [{"compound": "OCCN(CCO)c1nc(N2CCCCC2)c2nc(N(CCO)CCO)nc(N3CCCCC3)c2n1", "note": "[DIP, dipyridamole]", "values": [{"measurement": "UEMM-GBSA", "setting": "unsigned error |ΔGMM-GBSA − ΔGexp|", "value": 24.4, "unit": "kcal/mol"}, {"measurement": "UEMM-PBSA", "setting": "unsigned error |ΔGMM-PBSA − ΔGexp|", "value": 13.6, "unit": "kcal/mol"}]}]}
